From patent US20140011196
A negative result means that nothing was seen under these conditions. Protein sequences can lack the tags named with them.

Test system: T1, HpyF30I restriction endonuclease (Helicobacter pylori RFL30)
T1 sequence: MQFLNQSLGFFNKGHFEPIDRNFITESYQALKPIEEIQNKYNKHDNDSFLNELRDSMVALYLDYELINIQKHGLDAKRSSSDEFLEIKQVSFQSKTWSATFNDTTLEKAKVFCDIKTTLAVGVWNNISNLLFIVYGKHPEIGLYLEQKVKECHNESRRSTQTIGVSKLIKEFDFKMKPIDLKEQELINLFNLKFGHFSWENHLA
Test: enzyme reaction in vitro
Conditions: 37 C, purified recombinant protein

| Sequence | activity on this sequence (5mC in TCGA of both strands (lower strand filled in with dm5CTP), resistant at highest enzyme amount, Tango, variant of 55 bp TCGA oligonucleotide) | activity on this sequence (blunt cut TC/GA, Tango buffer, 10 mM Mg acetate) |
| --- | --- | --- |
| AGCACTCTAGAGGATCCCCGGGTACCGAGCTCGAATTCACTGGCCGTCGTTTTAC (double strand) [55 bp TCGA oligonucleotide m5C] | not active | – |
| AGCACTCTAGAGGATCCCCGGGTACCGAGCTCGAATTCACTGGCCGTCGTTTTAC (double strand) [55 bp TCGA oligonucleotide] | – | active |
